From paper PMC10729948 come the findings set out here.

This data set concerns the target QseB phosphorylated (QseB-P) (UniProt B7UIT0). The data set can be described thus: EMSA. The settings on record: acetyl phosphate-phosphorylated, complete shift at 3 ug protein, 20 fmol DNA; […] (printed '0. 1') […]; binding buffer, pH and temperature not stated; recombinant protein; protein details: His6 (pNIC28-Bsa4); label: 5' biotin on both strands.

Construct, isoform or probe ends are uncertain for at least one entry.

Regarding “ATTTACGTCTAATATTAGTTTCTTAAGGTTAAGTTAATATTCTATCCTTAAAATTTTGCT (double strand) [arn promoter QseB site, biotinylated]”, the binding result was “binds”.
